Earlier results as cited in US20060240077A1, “Methodologies for improving the quality of meat, health status of animals and impact on environment” (priority 2003, published 2006).

Settings: for Odour threshold air, High: highest literature value; for Odour threshold air, Low: lowest literature value

| SMILES | Odour threshold air, High | Odour threshold air, Low |
| --- | --- | --- |
| CC(C)C(=O)O [2-Methylpropanoic acid] | 0.0072 (3) mg/m3 | 0.00072 (3) mg/m3 |
| CC(C)CC(=O)O [3-Methylbutanoic acid] | 3 mg/m3 | 0.005 mg/m3 |
| Cc1c[nH]c2ccccc12 [3-Methylindole] | 0.1 mg/m3 | 0.00035 mg/m3 |
| CC(=O)O [Acetic acid] | 76 mg/m3 | 0.025 mg/m3 |
| CCCC(=O)O [Butyric acid] | 9 mg/m3 | 0.0004 mg/m3 |
| CSC [Dimethylsulfide] | 0.65 mg/m3 | 0.002 mg/m3 |
| CCCC(=O)OCC [Ethylbutyrate] | 0.28 mg/m3 | 0.13 mg/m3 |
| CCCCCO [Treatment 1-Pentanol, 1-Pentanol] | 1100 mg/m3 | 0.1 mg/m3 |
